Test results from paper PMC8956657 (Nature Communications, 2022).

Key:
[1] = target: IMPα2 lacking the IBB domain (residues 70-529) (UniProt P52293 70-529); test: crystal structure; settings: both partners purified
[2] = target: T1, IMPα3 lacking the IBB domain (residues 64-521) (UniProt O00629 64-521); test: crystal structure; settings: both partners purified
T1 construct: also called ΔIBB-IMPα3; KPNA4
T1 sequence (looked up): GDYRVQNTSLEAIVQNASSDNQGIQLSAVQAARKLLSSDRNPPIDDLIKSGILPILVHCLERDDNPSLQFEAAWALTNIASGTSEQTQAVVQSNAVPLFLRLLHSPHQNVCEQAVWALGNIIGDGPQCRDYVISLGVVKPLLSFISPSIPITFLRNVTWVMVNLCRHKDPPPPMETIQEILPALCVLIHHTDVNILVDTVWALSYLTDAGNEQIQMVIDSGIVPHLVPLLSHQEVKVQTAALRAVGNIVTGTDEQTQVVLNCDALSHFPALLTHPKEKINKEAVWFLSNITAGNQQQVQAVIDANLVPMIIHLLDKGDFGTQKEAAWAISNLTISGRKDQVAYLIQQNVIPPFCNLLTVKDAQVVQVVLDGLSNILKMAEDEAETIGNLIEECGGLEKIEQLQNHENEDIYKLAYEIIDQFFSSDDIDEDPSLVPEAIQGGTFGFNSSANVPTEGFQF

**Q.** Does RKARKRSHSPTKKLRYVKRRF (domain or fragment) [MERS-CoV ORF4b NLS region (residues 19-39), recombinant] bind [1]?
**A.** binds

**Q.** Does RKARKRSHSPTKKLRYVKRRF (domain or fragment) [MERS-CoV ORF4b NLS region (residues 19-39), recombinant] bind [2]?
**A.** binds
